In this series the test system is influenza A H1N1 (A/PR/8/34 virus). The series can be described thus: cytopathic effect (CPE) inhibition assay in MDCK cells. The series is classed as cell-based. The following applies: for fold more efficient against A/PR/8/34 virus: Compound 8 versus Compound 1, Compound 16 versus Compound 9. A general note: Damage to the host cells serves as the signal in cytopathic effect assays.

No dose or concentration is given here for some results.

`CC(=O)OC[C@H](Cc1ccccc1)NC(=O)[C@H](Cc1ccccc1)NC(=O)c1ccccc1` [Compound 1, (S)-2-((S)-2-benzamido-3-phenylpropanamido)-3-phenylpropyl acetate, reference compound] had an SI of over 12.2. Same read-out and setting: the same measure for `CC(=O)OC[C@H](Cc1ccccc1)NC(=O)[C@H](Cc1ccccc1)NC(=O)c1ccc(F)cc1` [Compound 3, (S)-2-((S)-2-(4-fluorobenzamido)-3-phenylpropanamido)-3-phenylpropyl acetate]: over 8.0; for `CC(=O)OC[C@H](Cc1ccc(F)cc1)NC(=O)[C@H](Cc1ccccc1)NC(=O)c1ccccc1` [Compound 4, (S)-2-((S)-2-benzamido-3-phenylpropanamido)-3-(4-fluorophenyl)propyl acetate]: over 11.4. For the molecule `CC(=O)OC[C@H](Cc1ccccc1)NC(=O)[C@H](Cc1ccc(F)cc1)NC(=O)c1ccc(F)cc1` [Compound 5, (S)-2-((S)-2-(4-fluorobenzamido)-3-(4-fluorophenyl)propanamido)-3-phenylpropyl acetate], the SI is on record as over 8.6. The same measure, in the same setting: the same measure for `CC(=O)OC[C@H](Cc1ccc(F)cc1)NC(=O)[C@H](Cc1ccc(F)cc1)NC(=O)c1ccccc1` [Compound 6, (S)-2-((S)-2-benzamido-3-(4-fluorophenyl)propanamido)-3-(4-fluorophenyl)propyl acetate]: over 16.9; for `CC(=O)OC[C@H](Cc1ccc(F)cc1)NC(=O)[C@H](Cc1ccccc1)NC(=O)c1ccc(F)cc1` [Compound 7, (S)-2-((S)-2-(4-fluorobenzamido)-3-phenylpropanamido)-3-(4-fluorophenyl)propyl acetate]: over 24.1. For the molecule `CC(=O)OC[C@H](Cc1ccc(F)cc1)NC(=O)[C@H](Cc1ccc(F)cc1)NC(=O)c1ccc(F)cc1` [Compound 8, (S)-2-((S)-2-(4-fluorobenzamido)-3-(4-fluorophenyl)propanamido)-3-(4-fluorophenyl)propyl acetate], the SI is listed as over 60.6 and the “fold more efficient against A/PR/8/34 virus” value is 10 fold.

Take `O=C(N[C@@H](Cc1ccccc1)C(=O)N[C@H](CO)Cc1ccccc1)c1ccccc1` [Compound 9, N—((S)-1-(((S)-1-hydroxy-3-phenylpropan-2-yl)amino)-1-oxo-3-phenylpropan-2-yl)benzamide, reference compound]: the SI is listed as over 11.4. As to `O=C(N[C@@H](Cc1ccc(F)cc1)C(=O)N[C@H](CO)Cc1ccccc1)c1ccccc1` [Compound 10, N—((S)-3-(4-fluorophenyl)-1-(((S)-1-hydroxy-3-phenylpropan-2-yl)amino)-1-oxopropan-2-yl)benzamide], the SI is reported as over 26.0.

The molecule `O=C(N[C@@H](Cc1ccccc1)C(=O)N[C@H](CO)Cc1ccccc1)c1ccc(F)cc1` [Compound 11, 4-fluoro-N—((S)-1-(((S)-1-hydroxy-3-phenylpropan-2-yl)amino)-1-oxo-3-phenylpropan-2-yl)benzamide] had an SI of over 7.9.

Molecule `O=C(N[C@@H](Cc1ccccc1)C(=O)N[C@H](CO)Cc1ccc(F)cc1)c1ccccc1` [Compound 12, N—((S)-1-(((S)-1-(4-fluorophenyl)-3-hydroxypropan-2-yl)amino)-1-oxo-3-phenylpropan-2-yl)benzamide] displayed an SI of over 21.3. Still for that read-out and setting: the value for `O=C(N[C@@H](Cc1ccc(F)cc1)C(=O)N[C@H](CO)Cc1ccccc1)c1ccc(F)cc1` [Compound 13] was over 34.1; that for `O=C(N[C@@H](Cc1ccc(F)cc1)C(=O)N[C@H](CO)Cc1ccc(F)cc1)c1ccccc1` [Compound 14, N—((S)-3-(4-fluorophenyl)-1-(((S)-1-(4-fluorophenyl)-3-hydroxypropan-2-yl)amino)-1-oxopropan-2-yl)benzamide] was over 18.1; that for `O=C(N[C@@H](Cc1ccccc1)C(=O)N[C@H](CO)Cc1ccc(F)cc1)c1ccc(F)cc1` [Compound 15, 4-fluoro-N—((S)-1-(((S)-1-(4-fluorophenyl)-3-hydroxypropan-2-yl)amino)-1-oxo-3-phenylpropan-2-yl)benzamide] was over 9.2. `O=C(N[C@@H](Cc1ccc(F)cc1)C(=O)N[C@H](CO)Cc1ccc(F)cc1)c1ccc(F)cc1` [Compound 16, 4-fluoro-N—((S)-3-(4-fluorophenyl)-1-(((S)-1-(4-fluorophenyl)-3-hydroxypropan-2-yl)amino)-1-oxopropan-2-yl)benzamide]: the SI is given as over 59.0 and the “fold more efficient against A/PR/8/34 virus” value is reported as 10 fold.

These data come from patent US11377418B2, “Compounds and methods for treating influenza” (Macau University of Science and Technology, priority 2020, dated 2022).
